Results of unrelated studies side by side (data: NIAID ChemDB).

All rows: tests in culture; species: HIV-1; cells: C8166; endpoint: EC50

ECn is the concentration giving n% inhibition of infection, replication or growth. An empty or dashed field is not shown. Neighbouring rows are from separate reports.

structure	strain	mutations	method	value
Cc1ccnc2c1NC(=O)c1cccnc1N2C1CC1	IIIB		p24	0.0212 µM
Cc1ccc(S(=O)(=O)N2CC3(C[C@H]2C(=O)N/N=C/c2ccccc2Cl)SCCS3)cc1	IIIB		syncytia / visual reading	>404 µM
CCO[C@H]1C[C@H](n2cc(C)c(=O)[nH]c2=O)O[C@@H]1COP(=O)(OCC(Cl)(Cl)Cl)OCC(Cl)(Cl)Cl	RF		p24 / ELISA	28 µM
CCCCCCCCCCCCCCCCCCCCCCC(=O)O[C@@H]1[C@@H](C)[C@@]2(O)[C@@H](C=C(COC(C)=O)C[C@]3(O)C(=O)C(C)=C[C@@H]23)[C@@H]2C(C)(C)[C@]12O	A17		p24 / ELISA	1.303 µM
NC(=O)c1nn([C@@H]2O[C@H](CO)[C@@H](O)[C@H]2O)cc1[N+](=O)[O-]	IIIB		syncytia	<25.4 µM
Cc1ccnc2c1NC(=O)c1cccnc1N2C1CC1	NL4-3	Y181C	antigen	4.896 µM
Cc1ccnc2c1NC(=O)c1cccnc1N2C1CC1	BILA2185-resistant (PR I84V)		p24	0.016 µM
CCCCCCNC(=O)OCCCCCCNC(=O)OC1CCN(C(=O)Oc2ccc(Oc3ccccc3)cc2)CC1	IIIB		p24 / ELISA	2.03 µM
COc1ccc2c(c1)CCCN2CCC(=O)N1CCN(Cc2ccccc2)CC1	IIIB		syncytia / visual reading	43.79 µg/mL
NC(=O)c1nn([C@@H]2O[C@H](CO)[C@@H](O)[C@H]2O)cc1Br	IIIB		syncytia	<12.2 µM
Cc1ccnc2c1NC(=O)c1cccnc1N2C1CC1	RF		cytopathic effect / MTT	0.04 µM
COc1ccc2c(c1)CCCN2CCC(=O)N1CCN(c2ccccc2OC)CC1	IIIB		syncytia / visual reading	13.21 µg/mL
CCCCOn1c(CCC)nc2c(C)cccc21	IIIB		RT activity	0.5 µM
COc1ccc2c(c1)CCCN2CCC(=O)N1CCN(c2ccc(C)cc2)CC1	IIIB		syncytia / visual reading	14.98 µg/mL
CCCCC[C@H](O)/C=C/[C@H]1C=CC(=O)[C@@H]1CCCCCCC(=O)O	IIIB		syncytia	~2 µM
Cc1cn([C@H]2C[C@H](C#N)[C@@H](CO)O2)c(=O)[nH]c1=O	RF		cytopathic effect	>100 µg/mL
Nc1ccn([C@@H]2CO[C@H](CO)S2)c(=O)n1	RF		p24	5.5 µM
Cc1cn([C@H]2C[C@H](N=[N+]=[N-])[C@@H](CO)O2)c(=O)[nH]c1=O	IIIB		RT activity	0.016 µM
Nc1ncnc2c1ncn2[C@H]1CC[C@@H](CO)O1	ROD		syncytia	4 µM
CC(C)=CCOn1c(C=C(C)C)nc2ccc(C)cc21	IIIB		RT activity	10 µM
COc1ccc2c(c1)CCCN2CCC(=O)N1CCN(c2ccc(F)cc2)CC1	IIIB		syncytia / visual reading	19.43 µg/mL
Cc1cn([C@H]2C[C@H](N=[N+]=[N-])[C@@H](CO)O2)c(=O)[nH]c1=O	A17		MTT	0.0161 µM
CCCCCOn1c(CCCC)nc2c(C)cccc21	IIIB		RT activity	8 µM
Nc1nc(Cl)nc2c1ncn2[C@H]1C=C[C@@H](CO)O1	HXBc2		RT activity	<20 µM
CC(=O)O[C@H]1C[C@H](n2ccc(=O)[nH]c2=O)O[C@@H]1COP(=O)(OCC(Cl)(Cl)Cl)OCC(Cl)(Cl)Cl	RF		p24 / ELISA	>100 µM
CC(C)[C@H](NC(=O)c1ccc2ccccc2n1)C(=O)N[C@@H](Cc1ccccc1)[C@H](O)CN1CC[C@@H](OCc2ccncc2)C[C@H]1C(=O)NC(C)(C)C	DDIR		p24 / ELISA / antigen	0.0062 µM
CC(C)[C@H](NC(=O)c1ccc2ccccc2n1)C(=O)N[C@@H](Cc1ccccc1)[C@H](O)CN1CC[C@@H](SCc2cccnc2)C[C@H]1C(=O)NC(C)(C)C	BILA1906-resistant (PR V32I A71V)	PR-V32I A71V	p24	0.003 µM
N#C/C=C1/c2cc(S)cc([N+](=O)[O-])c2-c2c1cc(S(=O)(=O)NCc1ccccc1)cc2[N+](=O)[O-]	IIIB		cytopathic effect / syncytia / microscopy	32.78 µM
CC(C)[C@H](NC(=O)c1ccc2ccccc2n1)C(=O)N[C@@H](Cc1ccccc1)[C@H](O)CN1CC[C@@H](SCc2cccnc2)C[C@H]1C(=O)NC(C)(C)C	IIIB		p24	0.001 µM
Cc1cn([C@H]2C[C@H](N=[N+]=[N-])[C@@H](CO)O2)c(=O)[nH]c1=O	RF		p24 / ELISA	0.02 µM
Nc1ccn([C@H]2CC[C@@H](CO)O2)c(=O)n1	RF		RT activity	0.03 µM
CC(C)[C@H](NC(=O)c1ccc2ccccc2n1)C(=O)N[C@@H](Cc1ccccc1)[C@H](O)CN1CC[C@@H](OCc2ccncc2)C[C@H]1C(=O)NC(C)(C)C	Nevirapine-resistant		p24	0.0014 µM

Repeating the final 3 entries:

structure | strain | mutations | method | value
Cc1cn([C@H]2C[C@H](N=[N+]=[N-])[C@@H](CO)O2)c(=O)[nH]c1=O | RF |  | p24 / ELISA | 0.02 µM
Nc1ccn([C@H]2CC[C@@H](CO)O2)c(=O)n1 | RF |  | RT activity | 0.03 µM
CC(C)[C@H](NC(=O)c1ccc2ccccc2n1)C(=O)N[C@@H](Cc1ccccc1)[C@H](O)CN1CC[C@@H](OCc2ccncc2)C[C@H]1C(=O)NC(C)(C)C | Nevirapine-resistant |  | p24 | 0.0014 µM